Results reported in patent publication US9617289B2, “RSV antiviral compounds” (JANSSEN R&D IRELAND, priority 2012, dated 2017).

system: HeLa cells; assay: Cytotoxicity in HeLa cells (ATP content, ATPlite kit); SI calculated as CC50/EC50; format: cell-based; details: SI is calculated as CC50/EC50, three days

Row | SMILES | SI_TOX-HELA_wt
1 | CC(C)NC(=O)N[C@H]1C[C@@]2(C1)C(=O)N(Cc1nc3cc(Cl)ccc3n1CCCC#N)c1ccccc12 [Compound 144, 1-((1r,3r)-1′-((5-chloro-1-(3-cyanopropyl)-1H-benzo[d]imidazol-2-yl)methyl)-2′-oxospiro[cyclobutane-1,3′-indolin]-3-yl)-3-isopropylurea] | >435994
2 | CC(=O)N[C@H]1C[C@]2(C1)C(=O)N(Cc1nc3cc(Cl)ccc3n1CCCC#N)c1ccccc12 [Compound 145, N-((1s,3s)-1′-((5-chloro-1-(3-cyanopropyl)-1H-benzo[d]imidazol-2-yl)methyl)-2′-oxospiro[cyclobutane-1,3′-indolin]-3-yl)acetamide] | >330255
3 | CC(=O)N[C@H]1C[C@@]2(C1)C(=O)N(Cc1nc3cc(Cl)ccc3n1CCCC#N)c1ccccc12 [Compound 146, N-((1r,3r)-1′-((5-chloro-1-(3-cyanopropyl)-1H-benzo[d]imidazol-2-yl)methyl)-2′-oxospiro[cyclobutane-1,3′-indolin]-3-yl)acetamide] | >198577
4 | N#CCCCn1c(CN2C(=O)C3(CCN(C(=O)OCCO)CC3)c3ccncc32)cc2cc(Cl)ccc21 [Compound 147, 2-Hydroxyethyl 1′-{[5-chloro-1-(3-cyanopropyl)-1H-indol-2-yl]methyl}-2′-oxo-1′,2′-dihydro-1H-spiro[piperidine-4,3′-pyrrolo[2,3-c]pyridine]-1-carboxylate] | 872087
5 | N#CCCCn1c(CN2c3ccccc3[C@]3(C[C@@H](N)C3)C2=O)nc2cc(Cl)ccc21 [Compound 148, 4-(2-(((1r,3r)-3-amino-2′-oxospiro[cyclobutane-1,3′-indolin]-1′-yl)methyl)-5-chloro-1H-benzo[d]imidazol-1-yl)butanenitrile] | 10550
6 | N#CCCCn1c(CN2c3ccccc3[C@]3(C[C@H](N)C3)C2=O)nc2cc(Cl)ccc21 [Compound 149, 4-(2-(((1s,3s)-3-amino-2′-oxospiro[cyclobutane-1,3′-indolin]-1′-yl)methyl)-5-chloro-1H-benzo[d]imidazol-1-yl)butanenitrile] | 43155
7 | CC(=O)OCCOC(=O)N1CCC2(CC1)C(=O)N(Cc1cc3cc(Cl)ccc3n1CCCC#N)c1cnccc12 [Compound 150, 2-(Acetyloxy)ethyl 1′-{[5-chloro-1-(3-cyanopropyl)-1H-indol-2-yl]methyl}-2′-oxo-1′,2′-dihydro-1H-spiro[piperidine-4,3′-pyrrolo-[2,3-c]pyridine]-1-carboxylate] | 862700
8 | CC(C)(O)C(=O)N1CC2(C1)C(=O)N(Cc1cc3cc(Cl)ccc3n1CCCS(C)(=O)=O)c1ccccc12 [Compound 152, 1′-({5-Chloro-1-[3-(methylsulfonyl)propyl]-1H-indol-2-yl}methyl)-1-(2-hydroxy-2-methylpropanoyl)spiro[azetidine-3,3′-indol]-2′(1′H)-one] | 31147
9 | CC(C)(O)C(=O)N1CCC2(CC1)C(=O)N(Cc1c(C(N)=O)c3cc(Cl)ccc3n1CCCCF)c1cnccc12 [Compound 153, 5-Chloro-1-(4-fluorobutyl)-2-{[1-(2-hydroxy-2-methylpropanoyl)-2′-oxospiro[piperidine-4,3′-pyrrolo[2,3-c]pyridin]-1′(2′H)-yl]methyl}-1H-indole-3-carboxamide] | 388687
10 | CC(C)(O)C(=O)N1CCC2(C1)C(=O)N(Cc1nc3cc(Cl)ccc3n1CCCC#N)c1ccccc12 (stereo not shown) [Compound 154, 4-(5-Chloro-2-{[1′-(2-hydroxy-2-methylpropanoyl)-2-oxospiro[indole-3,3′-pyrrolidin]-1(2H)-yl]methyl}-1H-benzimidazol-1-yl)butanenitrile] | >85767
11 | CC(C)(O)C(=O)N1CCC2(CC1)C(=O)N(Cc1cc3cc(Cl)ccc3n1CCCCO)c1cnccc12 [Compound 155, 1′-{[5-Chloro-1-(4-hydroxybutyl)-1H-indol-2-yl]methyl}-1 - (2-hydroxy-2-methylpropanoyl)spiro[piperidine-4,3′-pyrrolo[2,3-c]pyridin]-2′(1′H)-one] | 291340
12 | CC(C)(C)OC(=O)N1CCC2(CC1)C(=O)N(Cc1c(C(N)=O)c3cc(Cl)ccc3n1CCCCF)c1cnccc12 [Compound 156, tert-Butyl 1′-{[3-carbamoyl-5-chloro-1-(4-fluorobutyl)-1H-indol-2-yl]methyl}-2′-oxo-1′,2′-dihydro-1H-spiro[piperidine-4,3′-pyrrolo[2,3-c]pyridine]-1-carboxylate] | 178008
13 | O=C1CC2(C1)C(=O)N(Cc1nc3cc(Cl)ccc3n1CCCCF)c1ccccc12 [Compound 158, 1-{[5-Chloro-1-(4-fluorobutyl)-1H-benzimidazol-2-yl]methyl}-3H-spiro[cyclobutane-1,3′-indole]-2′,3(1′H)-dione] | 78873
14 | O=C1N(Cc2cc3cc(Cl)ccc3n2CCCCF)c2cnccc2C12CCNCC2 [Compound 162] | 2405
15 | CC(C)(C)OC(=O)N1CC2(C1)C(=O)N(Cc1cc3cc(Cl)ccc3n1CCCS(C)(=O)=O)c1ccccc12 [Compound 163, tert-Butyl 1′-({5-chloro-1-[3-(methylsulfonyl)propyl]-1H-indol-2-yl}methyl)-2′-oxo-1′,2′-dihydro-1H-spiro[azetidine-3,3′-indole]-1-carboxylate] | 95825
16 | CC(C)(O)C(=O)N1CCC2(CC1)C(=O)N(Cc1nc3cc(Cl)ccc3n1CCCCO)c1cnccc12 [Compound 164, 1′-{[5-Chloro-1-(4-hydroxybutyl)-1H-benzimidazol-2-yl]methyl}-1-(2-hydroxy-2-methylpropanoyl)spiro[piperidine-4,3′-pyrrolo[2,3-c]pyridin]-2′(1′H)-one] | >800424
17 | N#CCCCn1c(CN2C(=O)C3(CN(C(=O)C(O)CO)C3)c3ccccc32)cc2cc(Cl)ccc21 (stereo not shown) [Compound 165, 4-(5-chloro-2-((1-(2,3-dihydroxypropanoyl)-2′-oxospiro[azetidine-3,3′-indolin]-1′-yl)methyl)-1H-indol-1-yl)butanenitrile] | 288416
18 | CC(C)(O)C(=O)N1CC2(C1)C(=O)N(Cc1cc3cc(Cl)ccc3n1CCCCO)c1ccccc12 [Compound 166, 1′-{[5-Chloro-1-(4-hydroxybutyl)-1H-indol-2-yl]methyl}-1-(2-hydroxy-2-methylpropanoyl)spiro[azetidine-3,3′-indol]-2′(1′H)-one] | 64805
19 | CNC(=O)O[C@H]1C[C@@]2(C1)C(=O)N(Cc1nc3cc(Cl)ccc3n1CCCC#N)c1ccccc12 [Compound 168, (1r,3r)-1′-((5-chloro-1-(3-cyanopropyl)-1H-benzo[d]imidazol-2-yl)methyl)-2′-oxospiro[cyclobutane-1,3′-indolin]-3-yl methylcarbamate] | 2134519
20 | CC(=O)NS(=O)(=O)N1CC2(C1)C(=O)N(Cc1nc3cc(Cl)ccc3n1CCCC#N)c1ccccc12 [Compound 170, N-[(1′-{[5-Chloro-1-(3-cyanopropyl)-1H-benzimidazol-2-yl]methyl}-2′-oxo-1′,2′-dihydro-1H-spiro[azetidine-3,3′-indol]-1-yl)sulfonyl]acetamide] | >370143
21 | CC(=O)NS(=O)(=O)N1CCC2(CC1)C(=O)N(Cc1cc3cc(Cl)ccc3n1CCCC#N)c1cnccc12 [Compound 172, N-[(1′-{[5-Chloro-1-(3-cyanopropyl)-1H-indol-2-yl]methyl}-2′-oxo-1′,2′-dihydro-1H-spiro[piperidine-4,3′-pyrrolo[2,3-c]pyridin]-1-yl)sulfonyl]acetamide] | >1.515e+006
22 | N#CCCCn1c(CN2c3ccccc3[C@]3(C[C@@H](OC(=O)NC4CC4)C3)C2=O)nc2cc(Cl)ccc21 [Compound 173, (1r,3r)-1′-((5-chloro-1-(3-cyanopropyl)-1H-benzo[d]imidazol-2-yl)methyl)-2′-oxospiro[cyclobutane-1,3′-indolin]-3-yl cyclopropylcarbamate] | 2178763
23 | CC1CC2(CC(C)O1)C(=O)N(Cc1nc3cc(Cl)ccc3n1CCCS(C)(=O)=O)c1cnccc12 (stereo not shown) [Compound 174, 1′-({5-Chloro-1-[3-(methylsulfonyl)propyl]-1H-benzimidazol-2-yl}methyl)-2,6-dimethyl-2,3,5,6-tetrahydrospiro[pyran-4,3′-pyrrolo[2,3-c]pyridin]-2′(1′H)-one] | >5597.19
24 | CC(C)(O)C(=O)N1CC2(C1)C(=O)N(Cc1nc3cc(Cl)ccc3n1CCCCO)c1ccccc12 [Compound 175, 1′-{[5-Chloro-1-(4-hydroxybutyl)-1H-benzimidazol-2-yl]methyl}-1-(2-hydroxy-2-methylpropanoyl)spiro[azetidine-3,3′-indol]-2′(1′H)-one] | >1.346e+006
25 | N#CCCCn1c(CN2c3ccccc3[C@]3(C[C@@H](O)C3)C2=O)nc2cc(Cl)ccc21 [Compound 176, 4-(5-chloro-2-(((1r,3r)-3-hydroxy-2′-oxospiro[cyclobutane-1,3′-indolin]-1′-yl)methyl)-1H-benzo[d]imidazol-1-yl)butanenitrile] | >278272
26 | COC(=O)N1CCC2(CC1)C(=O)N(Cc1nc3cc(Cl)ccc3n1CCCCF)c1cnccc12 [Compound 178, Methyl 1′-{[5-chloro-1-(4-fluorobutyl)-1H-benzimidazol-2-yl]methyl}-2′-oxo-1′,2′-dihydro-1H-spiro[piperidine-4,3′-pyrrolo[2,3-c]pyridine]-1-carboxylate] | 3132492
27 | CC(C)OC(=O)N1CCC2(CC1)C(=O)N(Cc1nc3cc(Cl)ccc3n1CCCCF)c1cnccc12 [Compound 179, 1-Methylethyl 1′-{[5-chloro-1-(4-fluorobutyl)-1H-benzimidazol-2-yl]methyl}-2′-oxo-1′,2′-dihydro-1H-spiro[piperidine-4,3′-pyrrool[2,3-c]pyridine]-1-carboxylate] | 1045996
28 | N#CCCCn1c(CN2C(=O)C3(CN(S(=O)(=O)C4CC4)C3)c3ccccc32)nc2cc(Cl)ccc21 [Compound 180, 4-(5-Chloro-2-{[1-(cyclopropylsulfonyl)-2′-oxospiro[azetidine-3,3′-indol]-1′(2′H)-yl]methyl}-1H-benzimidazol-1-yl)butanenitrile] | >847754

No dose or concentration is given here for some results.
